{"source": "PubChem BioAssay AID1259414 (Drosophila RNAi Screening Center, 2018)", "screen": "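Genome-wide screen for host control of endosymbiont load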 (primary screen)", "system": "Drosophila JW18 cells infected with Wolbachia", "reagents": "long dsRNA against Drosophila genes, 0.25 µg dsRNA per well of a 384-well plate", "duration": "5 days", "conditions": "cells persistently infected with Wolbachia before knock-down; no added drug", "detection": "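Automated imaging of bacterial rRNA staining divided by host cell count, reported as plate-normalised robust z-score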", "reading the numbers": "Wolbachia per cell robust z: higher = more Wolbachia per host cell than the plate typical", "call rule": "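Active if absolute robust z reaches 1.5 in two or more of three replicates, leaving out multi- or no-target dsRNAs, genes unexpressed in JW18 and A1 wells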", "note": "The screen tested about 24,000 reagents; shown is an unselected part of those that have a named target and a result. Over the whole deposit, about 1,210 (5%) were called active. 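Inactive calls also include excluded dsRNAs with several or no targets, genes unexpressed in JW18, and well A1, regardless of score.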 A number with no mark means an inactive call. Reagents against one gene are numbered here."}
{"gene knocked down": "CG11226", "dsRNA no.": 1, "Wolbachia per cell robust z, rep 1": -1.11, "Wolbachia per cell robust z, rep 2": -9.63, "Wolbachia per cell robust z, rep 3": -1.32}
{"gene knocked down": "REPTOR", "dsRNA no.": 1, "Wolbachia per cell robust z, rep 1": -4.86, "Wolbachia per cell robust z, rep 2": 2.78, "Wolbachia per cell robust z, rep 3": 0.341}
{"gene knocked down": "REPTOR", "dsRNA no.": 2, "Wolbachia per cell robust z, rep 1": 0.394, "Wolbachia per cell robust z, rep 2": 1.55, "Wolbachia per cell robust z, rep 3": -0.0472}
{"gene knocked down": "stl", "dsRNA no.": 1, "Wolbachia per cell robust z, rep 1": 0.582, "Wolbachia per cell robust z, rep 2": -0.816, "Wolbachia per cell robust z, rep 3": 0.101}
{"gene knocked down": "CG5191", "dsRNA no.": 1, "Wolbachia per cell robust z, rep 1": 0.0615, "Wolbachia per cell robust z, rep 2": -0.0127, "Wolbachia per cell robust z, rep 3": 1.19}
{"gene knocked down": "CG5191", "dsRNA no.": 2, "Wolbachia per cell robust z, rep 1": 0.589, "Wolbachia per cell robust z, rep 2": -1.53, "Wolbachia per cell robust z, rep 3": 0.665}
{"gene knocked down": "CG5191", "dsRNA no.": 3, "Wolbachia per cell robust z, rep 1": -0.234, "Wolbachia per cell robust z, rep 2": -1.05, "Wolbachia per cell robust z, rep 3": -0.389}
{"gene knocked down": "CG5191", "dsRNA no.": 4, "Wolbachia per cell robust z, rep 1": -0.226, "Wolbachia per cell robust z, rep 2": -0.308, "Wolbachia per cell robust z, rep 3": 0.0721}
{"gene knocked down": "CG6280", "dsRNA no.": 1, "Wolbachia per cell robust z, rep 1": -2.4, "Wolbachia per cell robust z, rep 2": 1.75, "Wolbachia per cell robust z, rep 3": 0.204}
{"gene knocked down": "Zaf1", "dsRNA no.": 1, "Wolbachia per cell robust z, rep 1": 0.28, "Wolbachia per cell robust z, rep 2": 0.236, "Wolbachia per cell robust z, rep 3": 0.966}
{"gene knocked down": "lama", "dsRNA no.": 1, "Wolbachia per cell robust z, rep 1": 0.664, "Wolbachia per cell robust z, rep 2": -0.116, "Wolbachia per cell robust z, rep 3": 0.516}
{"gene knocked down": "SNF4Agamma", "dsRNA no.": 1, "Wolbachia per cell robust z, rep 1": 0.588, "Wolbachia per cell robust z, rep 2": 0.678, "Wolbachia per cell robust z, rep 3": 0.871}
{"gene knocked down": "SNF4Agamma", "dsRNA no.": 2, "Wolbachia per cell robust z, rep 1": -3.38, "Wolbachia per cell robust z, rep 2": 0.238, "Wolbachia per cell robust z, rep 3": 0.763}
{"gene knocked down": "SNF4Agamma", "dsRNA no.": 3, "Wolbachia per cell robust z, rep 1": -0.133, "Wolbachia per cell robust z, rep 2": 0.555, "Wolbachia per cell robust z, rep 3": 1.15}
{"gene knocked down": "SNF4Agamma", "dsRNA no.": 4, "Wolbachia per cell robust z, rep 1": 0.0223, "Wolbachia per cell robust z, rep 2": 0.763, "Wolbachia per cell robust z, rep 3": 1.6}
{"gene knocked down": "SNF4Agamma", "dsRNA no.": 5, "Wolbachia per cell robust z, rep 1": -0.675, "Wolbachia per cell robust z, rep 2": -0.0255, "Wolbachia per cell robust z, rep 3": 0.452}

2 entries from above, reduced to “Wolbachia per cell robust z, rep 3”.
Zaf1	0.966
lama	0.516
